Anti-infective test results gathered from many reports (values: NIAID ChemDB through PubChem).

Common to all: cytotoxicity tests; cell line: HEL; read-out: CC50

CCn is the concentration with n% toxicity to the cells. Lines come from different laboratories, so protocols vary.

C[C@@]1(CO)[C@H](O)CC[C@@]2(C)[C@H]1CC[C@H]1C[C@@H]3C[C@@]12CC[C@]3(O)CO ; result: >200 µg/mL
O=c1ccn(CC(CO)OCP(=O)(O)O)c(=O)[nH]1 ; result: >400 µg/mL
CCCCCCCCCCCCCCCCOCCOP1(=O)CO[C@@H](Cn2cnc3c(N)nc(N)nc32)CO1 ; result: 28.1 µM
C(=C/c1ccccc1)/c1ccccc1 ; result: >50 µM
Nc1ncc2ncn(CCOCP(=O)(O)O)c2n1 ; result: >400 µg/mL
Nc1ncnc2c1ncn2C1C[C@H](O)[C@@H](O)C1 ; result: 110 µg/mL
C=Cc1cn([C@@H]2O[C@H](CO)[C@@H](O)[C@@H]2O)c(=O)[nH]c1=O ; result: >592 µM
Nc1ncnc2c1ncn2C[C@H](O)CO ; result: 183 µg/mL
Nc1nc(Cl)c2nnn(C[C@H]3CC[C@@H](CO)C3)c2n1 ; result: 100 µg/mL
O=c1[nH]cnc2c1ncn2C[C@@H](CO)OCP(=O)(O)O ; result: >400 µg/mL
Nc1ccn([C@@H]2O[C@H](CO)[C@@H](O)[C@@H]2O)c(=O)n1 ; result: 0.2 µM
Nc1ncnc2c1ncn2C[C@@H](CO)OCP(=O)(O)O ; result: 20 µg/mL
Nc1ncnc2c1ncn2[C@@H]1C[C@H](CO)[C@@H](O)[C@H]1O ; result: 1.25 µg/mL
Nc1nc(N)c2ncn(C[C@H]3CC[C@@H](CO)C3)c2n1 ; result: 100 µg/mL
O=c1[nH]c(=O)n([C@H]2C[C@H](O)[C@@H](CO)S2)cc1C1CC1 ; result: >200 µM
C[C@H](N)C(=O)OCP(=O)(OC[C@H]1O[C@@H](n2cc(/C=C/Br)c(=O)[nH]c2=O)C[C@@H]1O)Oc1ccccc1 ; result: 51.7 µM
Cc1c(CC(=O)O)ccc(O)c1O ; result: >200 µg/mL
O=c1[nH]c(=O)n([C@@H]2O[C@H](CO)[C@@H](O)[C@@H]2O)cc1/C=C/Br ; result: >406 µM
Nc1nc2c(ncn2COCCO)c(=O)[nH]1 ; result: >844 µM
CC[C@H]1C[C@@H](n2cnc3c(N)ncnc32)[C@H](O)[C@@H]1O ; result: 30 µg/mL
O=c1[nH]c(=O)n([C@@H]2O[C@H](CO)[C@@H](O)[C@@H]2F)cc1/C=C/Br ; result: 413 µM
CC(C)(C)C(=O)OCOC(=O)CN(CC(=O)OCOC(=O)C(C)(C)C)P(=O)(OC[C@H]1O[C@@H](n2cc(/C=C/Br)c(=O)[nH]c2=O)C[C@@H]1O)Oc1ccccc1 ; result: 43 µM
Cc1cn([C@H]2C[C@H](O)[C@@H](CO)O2)c(=O)[nH]c1=O ; result: >200 µM
c1ccc(C2O[C@@H]2c2ccccc2)cc1 ; result: >50 µM
Nc1nc2c(nnn2C[C@H]2CC[C@@H](CO)C2)c(=O)[nH]1 ; result: 150 µg/mL
O=C(O)c1ccc(O)c(O)c1 ; result: 200 µg/mL
CCCCCCCCCCCCCCCCOCCOP1(=O)CO[C@@H](Cn2cnc(N)nc2=O)CO1 ; result: 6.4 µg/mL
Nc1nc(N)c2ncn(CCOCP(=O)(O)O)c2n1 ; result: 40 µg/mL
CC(C)NCC(O)c1ccc(O)c(O)c1 ; result: ≥200 µg/mL
C[C@@H](O)C1=C[C@@H](n2cnc3c(N)ncnc32)[C@H](O)[C@@H]1O ; result: >50 µg/mL
Nc1ncnc2c1ncn2[C@@H]1C=C(CO)[C@@H](O)[C@H]1O ; result: 21 µg/mL
CCOC(=O)c1cc(O)c(O)c(O)c1 ; result: 36 µg/mL
O=c1[nH]c(=O)n([C@H]2C[C@H](O)[C@@H](CO)O2)cc1C1CCCCC1 ; result: >150 µM
O=c1[nH]cccc1O ; result: >200 µg/mL
Nc1nc(N)c2nnn(C[C@H]3CC[C@@H](CO)C3)c2n1 ; result: 50 µg/mL
CCCCCCCCCCCCCCCCCCOCCOP(=O)([O-])CO[C@H](CO)Cn1cnc2c(N)nc(N)nc21 ; result: 18.84 µM
Oc1ccc(/C=C/c2cc(O)cc(O)c2)cc1 ; result: >400 µM
Nc1ncc2c(ncn2COC(CO)CO)n1 ; result: 418 µM
CC(=O)N(O)CCCCCNC(=O)CCC(=O)N(O)CCCCCNC(=O)CCC(=O)N(O)CCCCCN ; result: 6.37 µg/mL
O=C(O)Cc1cc(O)ccc1O ; result: 130 µg/mL
O=C(O)/C=C/c1ccc(O)c(O)c1 ; result: 123 µg/mL
O=c1[nH]c(=O)n([C@H]2C[C@H](O)[C@@H](CO)S2)cc1C1CCCC1 ; result: >150 µM
O=C(O)Cc1ccc(O)c(O)c1 ; result: 200 µg/mL
CCCCCCCCCCCCCCCCOCCCOP(=O)([O-])CO[C@H](CO)Cn1cnc2c(N)nc(N)nc21 ; result: ≥161 µM
O=C(O)P(=O)(O)O ; result: 200 µg/mL
Nc1ncnc2c1ncn2[C@@H]1C[C@H](c2ccccc2)[C@@H](O)[C@H]1O ; result: 150 µg/mL
O=C(O)P(=O)(O)O ; result: 200 µg/mL
O=c1[nH]cnc2c1ncn2CCOCP(=O)(O)O ; result: >400 µg/mL
c1ccc(-c2ccccn2)nc1 ; result: 10.47 µg/mL
Nc1ccn(C[C@H]2COP(=O)(O)CO2)c(=O)n1 ; result: 707 µM
Nc1ccn(C[C@@H](CO)OCP(=O)(O)O)c(=O)n1 ; result: 100 µg/mL
O=c1[nH]c(=O)n(C2CC(O)C(CO)O2)cc1/C=C/Br ; result: 201 µM
Nc1ncnc2c1ncn2CCOCP(=O)(O)O ; result: 100 µg/mL
O=c1[nH]cnc2c1ncn2CCOCP(=O)(O)O ; result: 400 µg/mL
O=C(O)c1cc(O)c(O)c(O)c1 ; result: 100 µg/mL
C=Cc1cn([C@@H]2O[C@H](CO)[C@@H](O)[C@@H]2F)c(=O)[nH]c1=O ; result: 114 µM
Nc1nc2c(ncn2C2C[C@H](O)[C@@H](O)C2)c(=O)[nH]1 ; result: 196 µg/mL

The last 5 rows once more:

structure | result
Nc1ncnc2c1ncn2CCOCP(=O)(O)O | 100 µg/mL
O=c1[nH]cnc2c1ncn2CCOCP(=O)(O)O | 400 µg/mL
O=C(O)c1cc(O)c(O)c(O)c1 | 100 µg/mL
C=Cc1cn([C@@H]2O[C@H](CO)[C@@H](O)[C@@H]2F)c(=O)[nH]c1=O | 114 µM
Nc1nc2c(ncn2C2C[C@H](O)[C@@H](O)C2)c(=O)[nH]1 | 196 µg/mL